Reference: PubChem BioAssay AID1259414 (Drosophila RNAi Screening Center, 2018)

Aim: 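Genome-wide screen for host control of endosymbiont load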 (primary screen)
Cell system: Drosophila JW18 cells infected with Wolbachia
Reagent: long dsRNA against Drosophila genes, 0.25 µg dsRNA per well of a 384-well plate
Time to read-out: 5 days
Conditions: cells persistently infected with Wolbachia before knock-down; no added drug
Measured: 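Automated imaging of bacterial rRNA staining divided by host cell count, reported as plate-normalised robust z-score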
Scale: Wolbachia per cell robust z: higher = more Wolbachia per host cell than the plate typical
Call rule: 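Hit when robust z is 1.5 or more, or -1.5 or less, in at least two of three replicates; excludes dsRNAs with several or no targets, genes not expressed in JW18 and well A1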
The deposit covers about 24,000 reagents; this is an unselected part of those with a known target gene and a result. In the full data, about 1,210 (5%) were called active. 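Inactive calls also include excluded dsRNAs with several or no targets, genes unexpressed in JW18, and well A1, regardless of score.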 No sequences are given here.

Arfip (Arfaptin) [DRSC15179] → Wolbachia per cell robust z, rep 1 = 0.378; Wolbachia per cell robust z, rep 2 = 0.158; Wolbachia per cell robust z, rep 3 = -0.676; Outcome = inactive
Arfip (Arfaptin) [DRSC27068] → Wolbachia per cell robust z, rep 1 = -0.744; Wolbachia per cell robust z, rep 2 = -1.01; Wolbachia per cell robust z, rep 3 = -1.17; Outcome = inactive
asp (abnormal spindle) [DRSC16903] → Wolbachia per cell robust z, rep 1 = -1.13; Wolbachia per cell robust z, rep 2 = -1.13; Wolbachia per cell robust z, rep 3 = -7.99; Outcome = inactive
TrpA1 (Transient receptor potential cation channel A1) [DRSC10544] → Wolbachia per cell robust z, rep 1 = -3.26; Wolbachia per cell robust z, rep 2 = 0.786; Wolbachia per cell robust z, rep 3 = 0.722; Outcome = inactive

Next part; the last 2 above are carried over.
asp (abnormal spindle) [DRSC16903] → Wolbachia per cell robust z, rep 1 = -1.13; Wolbachia per cell robust z, rep 2 = -1.13; Wolbachia per cell robust z, rep 3 = -7.99; Outcome = inactive
TrpA1 (Transient receptor potential cation channel A1) [DRSC10544] → Wolbachia per cell robust z, rep 1 = -3.26; Wolbachia per cell robust z, rep 2 = 0.786; Wolbachia per cell robust z, rep 3 = 0.722; Outcome = inactive
Naprt (Nicotinate phosphoribosyltransferase) [DRSC00630] → Wolbachia per cell robust z, rep 1 = -1.08; Wolbachia per cell robust z, rep 2 = -0.668; Wolbachia per cell robust z, rep 3 = 0.645; Outcome = inactive
Naprt (Nicotinate phosphoribosyltransferase) [DRSC28652] → Wolbachia per cell robust z, rep 1 = 0.666; Wolbachia per cell robust z, rep 2 = -0.473; Wolbachia per cell robust z, rep 3 = -0.0892; Outcome = inactive
CG40439 [DRSC22707] → Wolbachia per cell robust z, rep 1 = 0.604; Wolbachia per cell robust z, rep 2 = 0.791; Wolbachia per cell robust z, rep 3 = 1.33; Outcome = inactive
CG40439 [DRSC26673] → Wolbachia per cell robust z, rep 1 = 0.527; Wolbachia per cell robust z, rep 2 = -0.886; Wolbachia per cell robust z, rep 3 = 1.37; Outcome = inactive
CG12158 [DRSC22933] → Wolbachia per cell robust z, rep 1 = -2.05; Wolbachia per cell robust z, rep 2 = -1.38; Wolbachia per cell robust z, rep 3 = 1.8; Outcome = inactive
Obp83b (Odorant-binding protein 83b) [DRSC12360] → Wolbachia per cell robust z, rep 1 = 0.113; Wolbachia per cell robust z, rep 2 = -0.977; Wolbachia per cell robust z, rep 3 = -2.25; Outcome = inactive
Obp83b (Odorant-binding protein 83b) [DRSC25688] → Wolbachia per cell robust z, rep 1 = 0.0188; Wolbachia per cell robust z, rep 2 = -0.448; Wolbachia per cell robust z, rep 3 = 0.251; Outcome = inactive
CG15322 [DRSC20680] → Wolbachia per cell robust z, rep 1 = 1.43; Wolbachia per cell robust z, rep 2 = 0.366; Wolbachia per cell robust z, rep 3 = 0.744; Outcome = inactive
CG15322 [DRSC23023] → Wolbachia per cell robust z, rep 1 = -0.82; Wolbachia per cell robust z, rep 2 = -1.29; Wolbachia per cell robust z, rep 3 = -3.73; Outcome = inactive
